Here are results for one compound from patent US20090182133A1 (priority 2005, published 2009).

Each structure is given as a SMILES string.

The target in the assay is SARS 3CL proteinase (Severe acute respiratory syndrome coronavirus, UniProt P0C6X7). As to the kind of experiment: biochemical. It counts as binding, SARS-CoV.

With `O=c1c(O[C@@H]2O[C@H](CO)[C@@H](O)[C@H](O)[C@H]2O)c(-c2ccc(O)c(O)c2)oc2cc(O)cc(O)c12` [IA-1, Quercetin-3-O-β-D-glucopyranoside], the Kd (commonly the constant that tells how readily two partners part at equilibrium) is 26.7 µM and the “coupling/affinity with SARS 3CL (in words)” value was “couple strongly”.
